This passage reports Kd results from article PMC13232947.

For the experiment, the target named is dimeric His-tagged Rhinolophus cornutus bat ACE2 (bACE2_(R.cor)) (Rhinolophus cornutus). Nature of the experiment: BLI. (In general: BLI is a label-free optical method that tracks binding on a fibre tip over time.)

One may read the Kd as the free concentration of one partner at which half of the binding sites on the other are occupied at equilibrium, for simple one-to-one binding. Low values mean a tighter complex, high ones a looser complex. Consider BANAL-20-236-RBD-Fc, for which the Kd amounted to 13.1 nM.
